Drawing on article PMC11053914 (Viruses, 2024), this text covers IC50 for 3 molecules.

For orientation: IC50 means the concentration needed to halve the response being measured.

SMILES strings stand for the structures.

The test system of this assay is HIV-1 NL4-3 packaged with A3G. To be noted: read-out: IC50, infectivity of the A3G-containing viruses; HEK293T co-transfected with pNL4-3 and pVR-A3G-cmyc; peptides 25, 50, 100 μM added 4 h post-transfection; supernatants at 48 h tested in TZM-bl cells; three independent experiments.
For the molecule `CC[C@H](C)[C@H](NC(=O)[C@H](C)NC(=O)[C@H](CO)NC(=O)[C@H](CC(N)=O)NC(=O)[C@H](CO)NC(=O)[C@H](Cc1ccccc1)NC(=O)[C@H](CS)NC(=O)[C@H](CC(=O)O)NC(=O)[C@H](Cc1ccccc1)NC(=O)[C@H](Cc1ccc(O)cc1)NC(=O)[C@H](Cc1ccc(O)cc1)NC(=O)[C@H](CC(C)C)NC(=O)[C@H](CCCNC(=N)N)NC(C)=O)C(N)=O` [VMP-108], the IC50 amounted to 55.1 µM. In the case of `CC[C@H](C)[C@H](NC(=O)[C@H](C)NC(=O)[C@H](CC(C)C)NC(=O)CNC(C)=O)C(=O)N[C@H](C(=O)N[C@H](C(=O)N[C@@H](Cc1ccc(O)cc1)C(=O)N[C@@H](Cc1c[nH]c2ccccc12)C(=O)NCC(=O)N[C@@H](CC(C)C)C(=O)N[C@@H](Cc1c[nH]cn1)C(=O)N[C@H](C(=O)NCC(=O)N[C@@H](CCC(=O)O)C(=O)N[C@@H](CCCNC(=N)N)C(=O)NCC(N)=O)[C@@H](C)O)[C@@H](C)O)[C@@H](C)O` [VMP-63], the IC50 was 49.4 µM.

Turning to `CC[C@H](C)[C@H](NC(=O)[C@@H](NC(=O)[C@H](CC(C)C)NC(=O)CNC(=O)[C@H](C)NC(=O)[C@H](CC(=O)O)NC(=O)[C@H](CCCNC(=N)N)NC(C)=O)C(C)C)C(=O)N[C@H](C(=O)N[C@H](C(=O)N[C@@H](Cc1ccc(O)cc1)C(=O)N[C@@H](Cc1c[nH]c2ccccc12)C(=O)NCC(=O)N[C@@H](CC(C)C)C(=O)N[C@@H](Cc1c[nH]cn1)C(=O)N[C@H](C(=O)NCC(=O)N[C@@H](CCCCN)C(N)=O)[C@@H](C)O)[C@@H](C)O)[C@@H](C)O` [VMP-60], the IC50 came out at 97 µM.
